Measurements reported in PubChem BioAssay AID504761 (Drosophila RNAi Screening Center, 2011)

Purpose: 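Fly genes whose silencing reduces dengue virus type 2 infection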 (primary screen)
Cells: D.Mel-2 cells from Drosophila
Reagents: long dsRNA against Drosophila genes
Treatment: infection with dengue virus type 2; dose and infection time not stated
Detection: 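Cells stained for dengue envelope protein and imaged; percent of infected cells per well on duplicate plates, ranked by infection, with stained nuclei counted for cell number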
Reading the numbers: infection score: higher = more virus-infected cells
Rule for the call: 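Low infection ranks in the two replicates (chance level up to 0.065) followed by a retest with a 1.5-fold or larger significant decrease, p below 0.05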
Calls: active = confirmed: knock-down lowers infection; inactive = not picked or not confirmed
The screen tested about 22,000 reagents; shown is a random part of those that have a named target and a result. In the full data, 116 (0.52%) are marked active. 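Calls depend on retest data that are not deposited; infection was ranked per plate without normalising between plates; the unit of the infection score is not given.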 A plus sign joins genes that one reagent is predicted to hit. Not all columns of the deposit are shown. Not stated in the record: the amount of reagent, the time to read-out.

The opening 3 entries, to show the layout:
target gene | DRSC id | infection score, replicate 1 | infection score, replicate 2 | activity call
CG11537 | DRSC08200 | 7.72 | 8.37 | inactive
CG8419 | DRSC03087 | 4.83 | 6.57 | inactive
Tango11 | DRSC03890 | 1.87 | 1.34 | inactive

The listing, from the start:
target gene | DRSC id | infection score, replicate 1 | infection score, replicate 2 | activity call
CG11537 | DRSC08200 | 7.72 | 8.37 | inactive
CG8419 | DRSC03087 | 4.83 | 6.57 | inactive
Tango11 | DRSC03890 | 1.87 | 1.34 | inactive
Tango11 | DRSC03892 | – | 0.45 | inactive
dikar | DRSC09699 | 8.09 | 4.69 | inactive
dikar | DRSC22261 | 1.04 | 3.89 | inactive
dikar | DRSC26562 | 10.8 | 3.71 | inactive
CG3502 + CG9863 | DRSC04578 | 2.6 | 7.82 | inactive
mib1 | DRSC10550 | 1.38 | 2.87 | inactive
Psf2 | DRSC00516 | 2.31 | 2.83 | inactive
Enoph | DRSC12201 | 3.47 | 1 | inactive
GC2 | DRSC14476 | 5.93 | 4.37 | inactive
GC2 | DRSC27370 | 20 | 3.35 | inactive
brn | DRSC18746 | 8.13 | 31.1 | inactive
Phm | DRSC04639 | 9.17 | 26.9 | inactive
CG13972 | DRSC14715 | 3.59 | 5.51 | inactive
CG13972 | DRSC26881 | 1.15 | 3.61 | inactive
CG15343 | DRSC18028 | 10 | 6.95 | inactive
CG6933 | DRSC10751 | 11.7 | 18.4 | inactive
CG6108 (retired record) | DRSC02929 | 4.87 | 6.82 | inactive
scramb1 | DRSC09724 | 1.98 | 2.64 | inactive
scramb1 | DRSC10667 | 3.11 | 3.09 | inactive
scramb1 | DRSC10668 | 0.97 | 4.92 | inactive
MCU | DRSC10339 | 1.36 | 6.89 | inactive
CG17637 | DRSC11740 | 2.69 | 6.59 | inactive
CG4554 | DRSC04473 | 0.48 | 1.12 | inactive
CG4554 | DRSC27881 | 17.7 | 6.46 | inactive
SLC22A | DRSC11826 | 6.55 | 8.96 | inactive
SLC22A | DRSC11827 | 2.65 | 7.4 | inactive
CG4269 | DRSC04457 | 15.6 | 22.8 | inactive
CG14342 | DRSC00372 | 4.4 | 1.76 | inactive
CG14342 | DRSC25128 | 3.1 | 7.09 | inactive
cv-2 | DRSC03861 | 1.8 | 0.76 | inactive
cv-2 | DRSC04261 | 1.27 | 4.7 | inactive
Polr2M | DRSC15513 | 1.8 | 2.55 | inactive
Polr2M | DRSC25856 | 1.17 | 4.32 | inactive
CG14043 | DRSC02368 | 4.79 | 8.63 | inactive
CG14043 | DRSC29925 | 17.6 | 5.5 | inactive
loaf | DRSC09130 | 5.78 | 2.2 | inactive
Serinc | DRSC11296 | 7.83 | 16.4 | inactive
Fmo-2 | DRSC04983 | 10.8 | 22.4 | inactive
CG15375 | DRSC18045 | 4.98 | 1.91 | inactive
CG15375 | DRSC29860 | 17.5 | 18.9 | inactive
CG6163 | DRSC10595 | 3.49 | 2.18 | inactive
CG6163 | DRSC26527 | 3.06 | 6.96 | inactive
ND-49 | DRSC17151 | 7.8 | 2.06 | inactive
CG13970 | DRSC02311 | 2.42 | 14.4 | inactive
CG13970 | DRSC29509 | 17.8 | 3.02 | inactive
Burs | DRSC14595 | 2.98 | 1.08 | inactive
CG6683 | DRSC10694 | 5.93 | 7.88 | inactive
CG6683 | DRSC25674 | 4.24 | 4.38 | inactive
whe | DRSC20537 | 2.81 | 4.64 | inactive
whe | DRSC26236 | 4.54 | 4.8 | inactive
Mpi | DRSC16417 | 1.12 | 2.85 | inactive
sordd2 + sordd1 | DRSC20136 | 2.7 | 1.8 | inactive
sordd2 + sordd1 | DRSC28444 | 17.1 | 9.29 | inactive
Rox8 | DRSC16829 | 1.63 | 5.17 | inactive
Rox8 | DRSC29536 | 16.3 | 16.7 | inactive
CG15712 | DRSC06583 | 25.5 | 7.67 | inactive
CG11878 | DRSC14422 | 9.27 | 6.33 | inactive
CG11878 | DRSC24563 | 1.18 | 3.26 | inactive
Pcf11 | DRSC23350 | 4.7 | 6.72 | inactive
CG2129 | DRSC18209 | 2.55 | 2.51 | inactive
CG2129 | DRSC24934 | 3.26 | 5.07 | inactive
Tbc1d15-17 | DRSC00313 | 4.33 | 4.53 | inactive
Tbc1d15-17 | DRSC28813 | 20.1 | 27.7 | inactive
cup | DRSC03516 | 4.35 | 4.87 | inactive
cup | DRSC24610 | 0.7 | 7.42 | inactive
ouib | DRSC14376 | 1.87 | 12 | inactive
Plc21C | DRSC00773 | 3.2 | 17.1 | inactive
CG12464 | DRSC06156 | 17.9 | 9.79 | inactive
CG14397 | DRSC02381 | 1.86 | 10.9 | inactive
CG17380 | DRSC15230 | 4.66 | 3.56 | inactive
sip1 | DRSC03609 | 1.85 | 8.62 | inactive
sip1 | DRSC22648 | 5.93 | 2.34 | inactive
sip1 | DRSC27781 | 15.4 | 17.1 | inactive
